## Potato spindle tuber viroid, loop 15: variant abundance in plants

The pool varies loop 15 of the PSTVd intermediate strain in the pattern GGAAACCGNNNNNNC; wild type is GGAAACCGCUACUAC (upper and lower strand joined, each 5' to 3', the first 7 letters being the upper strand, closing pairs included).

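A pool of all variants was put on leaves of three Nicotiana benthamiana plants. Samples came from the inoculated region at 5 days, the leaf margin at 10 and upper systemic leaves at 12.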

Numbers give reads per thousand; 0 = not seen among the reads, higher = more abundant. Each site shows the three plants. "Pool" is the share in the plasmid pool used as inoculum, on the same scale. The inoculated region was read from the minus strand, the other sites from the plus strand. IR is the inoculated region, LM the leaf margin, Sys the systemic leaves.

{"sequence": "GGAAACCGAGCCCGC", "pool": "0.224", "IR": "0.131 0.0964 0.0381", "LM": "0.0162 0 0.0200", "Sys": "0 0 0"}
{"sequence": "GGAAACCGAGCCCUC", "pool": "0.176", "IR": "0.0983 0.0964 0.114", "LM": "0 0 0", "Sys": "0 0 0.0228"}
{"sequence": "GGAAACCGAGCCGAC", "pool": "0.288", "IR": "0.0328 0.145 0.114", "LM": "0.0162 0 0", "Sys": "0 0 0"}
{"sequence": "GGAAACCGAGCCGCC", "pool": "0.112", "IR": "0.0491 0.0803 0.0762", "LM": "0.0162 0.0223 0.0401", "Sys": "0 0 0"}
{"sequence": "GGAAACCGAGCCGGC", "pool": "0.272", "IR": "0.229 0.0964 0.228", "LM": "0.0485 0 0.0601", "Sys": "0.0161 0 0"}
{"sequence": "GGAAACCGAGCCGUC", "pool": "0.304", "IR": "0.0819 0.145 0.0762", "LM": "0.0162 0.0223 0.0401", "Sys": "0 0 0"}
{"sequence": "GGAAACCGAGCCUAC", "pool": "0.176", "IR": "0.278 0.321 0.495", "LM": "0.194 0.0668 0.260", "Sys": "0.0644 0 0"}
{"sequence": "GGAAACCGAGCCUCC", "pool": "0.256", "IR": "0.0491 0.0482 0.0952", "LM": "0.0162 0.0223 0", "Sys": "0 0 0"}
{"sequence": "GGAAACCGAGCCUGC", "pool": "0.240", "IR": "0.131 0.0803 0.152", "LM": "0 0 0.0401", "Sys": "0.0161 0 0"}
{"sequence": "GGAAACCGAGCCUUC", "pool": "0.304", "IR": "0.0819 0.0803 0.0381", "LM": "0.0162 0 0", "Sys": "0 0 0"}
{"sequence": "GGAAACCGAGCGAAC", "pool": "0.256", "IR": "0.262 0.273 0.533", "LM": "0.0485 0.111 0.140", "Sys": "0.0322 0 0"}
{"sequence": "GGAAACCGAGCGACC", "pool": "0.176", "IR": "0.0983 0.0803 0.0952", "LM": "0.0323 0 0", "Sys": "0.0161 0 0"}
{"sequence": "GGAAACCGAGCGAGC", "pool": "0.208", "IR": "0.0819 0.0803 0.133", "LM": "0 0 0", "Sys": "0 0 0"}
{"sequence": "GGAAACCGAGCGAUC", "pool": "0.176", "IR": "0.786 0.883 0.724", "LM": "0.0970 2.32 0.200", "Sys": "0.0161 0 0"}
{"sequence": "GGAAACCGAGCGCAC", "pool": "0.208", "IR": "0.0655 0.177 0.0952", "LM": "0 0 0.0200", "Sys": "0 0 0.0228"}
{"sequence": "GGAAACCGAGCGCCC", "pool": "0.160", "IR": "0.0328 0.0643 0.152", "LM": "0 0 0.0200", "Sys": "0 0 0"}
{"sequence": "GGAAACCGAGCGCGC", "pool": "0.208", "IR": "0.262 0.209 0.0952", "LM": "0 0 0.0401", "Sys": "0.0161 0 0"}
{"sequence": "GGAAACCGAGCGCUC", "pool": "0.208", "IR": "0.0983 0.0803 0.0762", "LM": "0 0 0.0401", "Sys": "0 0 0.0228"}
{"sequence": "GGAAACCGAGCGGAC", "pool": "0.144", "IR": "0.0491 0.112 0.133", "LM": "0 0 0.0200", "Sys": "0.0161 0 0"}
{"sequence": "GGAAACCGAGCGGCC", "pool": "0.272", "IR": "0.115 0.129 0.0571", "LM": "0.0162 0 0", "Sys": "0 0 0"}
{"sequence": "GGAAACCGAGCGGGC", "pool": "0.224", "IR": "0.0819 0.0803 0.0762", "LM": "0 0 0", "Sys": "0 0 0"}
{"sequence": "GGAAACCGAGCGGUC", "pool": "0.224", "IR": "0.966 0.787 0.609", "LM": "0 0.0223 0", "Sys": "0 0 0"}
{"sequence": "GGAAACCGAGCGUAC", "pool": "0.272", "IR": "0.377 0.402 0.324", "LM": "0.0647 0.0891 0.140", "Sys": "0.0322 0.0151 0.0456"}
{"sequence": "GGAAACCGAGCGUCC", "pool": "0.176", "IR": "0.180 0.0964 0.0571", "LM": "0.0162 0 0", "Sys": "0 0 0"}
{"sequence": "GGAAACCGAGCGUGC", "pool": "0.288", "IR": "0.295 0.257 0.286", "LM": "0.113 0.0445 0.160", "Sys": "0.0161 0.121 0.0456"}
{"sequence": "GGAAACCGAGCGUUC", "pool": "0.176", "IR": "0.442 0.643 0.552", "LM": "0.129 0.156 0.180", "Sys": "0.0322 0.0756 0.0228"}
{"sequence": "GGAAACCGAGCUAAC", "pool": "0.192", "IR": "0.131 0.0803 0.0952", "LM": "0 0.0223 0.0200", "Sys": "0.0161 0 0"}
{"sequence": "GGAAACCGAGCUACC", "pool": "0.0800", "IR": "0.0655 0.0643 0.0381", "LM": "0 0 0.0200", "Sys": "0 0 0"}
{"sequence": "GGAAACCGAGCUAGC", "pool": "0.176", "IR": "0.115 0.0803 0.0381", "LM": "0 0.0223 0", "Sys": "0.0161 0 0"}
{"sequence": "GGAAACCGAGCUAUC", "pool": "0.272", "IR": "0.0819 0.0964 0.0762", "LM": "0 0.0223 0.0401", "Sys": "0 0 0"}
{"sequence": "GGAAACCGAGCUCAC", "pool": "0.192", "IR": "0.115 0.161 0.114", "LM": "0.0162 0 0.0200", "Sys": "0 0 0"}
{"sequence": "GGAAACCGAGCUCCC", "pool": "0.304", "IR": "0.0491 0.0161 0.190", "LM": "0.0162 0.0223 0.0200", "Sys": "0 0 0"}
{"sequence": "GGAAACCGAGCUCGC", "pool": "0.336", "IR": "0.229 0.353 0.209", "LM": "0 0 0.0200", "Sys": "0 0 0"}
{"sequence": "GGAAACCGAGCUCUC", "pool": "0.176", "IR": "0.197 0.177 0.190", "LM": "0 0 0.0200", "Sys": "0 0 0"}

A selection of 3 entries from above:

{"sequence": "GGAAACCGAGCCGCC", "pool": "0.112", "IR": "0.0491 0.0803 0.0762", "LM": "0.0162 0.0223 0.0401", "Sys": "0 0 0"}
{"sequence": "GGAAACCGAGCCGGC", "pool": "0.272", "IR": "0.229 0.0964 0.228", "LM": "0.0485 0 0.0601", "Sys": "0.0161 0 0"}
{"sequence": "GGAAACCGAGCGUAC", "pool": "0.272", "IR": "0.377 0.402 0.324", "LM": "0.0647 0.0891 0.140", "Sys": "0.0322 0.0151 0.0456"}

Sequences that differ at fixed positions probably stem from PCR or sequencing errors, and defective variants can be carried along by functional ones. With 43,870-66,106 reads a sample, very low values are single reads. For reference, wild type rose from 33.9 per thousand in the pool to 202, 200, 159 (inoculated region), 724, 746, 710 (leaf margin) and 856, 883, 880 (systemic leaves).

Source: Wu et al. 2024 (doi:10.1371/journal.ppat.1012142), supplementary data.